Results of unrelated studies side by side (data: NIAID ChemDB).

All rows: growth or infection tests; agent: Aspergillus fumigatus; read by: broth dilution; read-out: MIC

Blank or dashed fields: not listed here. Lines come from different laboratories, so protocols vary.

| SMILES | strain | value |
|---|---|---|
| CN1CCN(c2n[nH]c(N3C(=O)CS[C@@H]3c3ccc4c(c3)OCO4)n2)CC1 | 153.9 | 50 µg/mL |
| COc1ccc(N2C(=O)CC(c3c(C)nn(-c4ccccc4)c3Cl)C3=C2CCCC3=O)cc1 | MTCC 3008 | 1000 µg/mL |
| N=c1oc2ccccc2c2csc(N)c12 | - | 16 µg/mL |
| Cc1ccc([C@H]2SCC(=O)N2c2nc(N3CCN(C)CC3)n[nH]2)cc1 | 168.95 | 10 µg/mL |
| Cc1ccc(-c2[nH]c3ccccc3c2-c2c(CN)c(N)n3c(nc4cc(C)ccc43)c2CN)cc1 | MTCC 3008 | 500 µg/mL |
| CCCC[C@@H](C)/C=C(C)/C=C(\C)C(=O)N/C(=C/[C@@](C)(O)/C=C/C=C/C=C/C(=O)NC1=C(O)CCC1=O)C(=O)[C@@H]1CO1 | 3 | 200 µM |
| COc1ccc([C@H]2SC(C)C(=O)N2c2nc(N3CCOCC3)n[nH]2)cc1OC | 168.95 | 100 µg/mL |
| CCCCCCCCCCCCCCCC(=O)NC(CCCN)C(=O)NC(CCCN)C(=O)NC(CCCN)C(=O)NC(CCCN)C(=O)NC(CCCN)C(N)=O | ATCC 42203 | 1.5 µg/mL |
| Cc1ccc2c(c1)nc1c(CN)c(-c3c(-c4ccc(Cl)cc4)[nH]c4ccccc34)c(CN)c(N)n12 | MTCC 3008 | >1000 µg/mL |
| O=c1c(OC2CCCC2)c(N2CCN(S(=O)(=O)NCc3ccccc3)CC2)cnn1-c1cccc(Cl)c1 | ND158 | 1.56 µg/mL |
| Cc1ccc([C@H]2SC(C)C(=O)N2c2nc(N3CCN(C)CC3)n[nH]2)cc1 | 168.95 | 10 µg/mL |
| Cc1ccc(-c2[nH]c3ccccc3c2-c2c(CN)c(N)n3c(nc4ccccc43)c2CN)cc1 | MTCC 3008 | 1000 µg/mL |
| O=c1c(N2CCOCC2)c(N2CCN(S(=O)(=O)Cc3ccccc3)CC2)cnn1-c1ccccc1 | ND158 | 12.5 µg/mL |
| CCCCCCCCCCCC(=O)NC(CCCN)C(=O)NC(CCCN)C(=O)NC(CCCN)C(=O)NC(CCCN)C(N)=O | ATCC 42203 | 6.25 µg/mL |
| NCc1c(-c2c(-c3ccc(Br)cc3)[nH]c3ccccc23)c(CN)c2nc3ccccc3n2c1N | MTCC 3008 | >1000 µg/mL |
| CCCCCCCCCCCC(=O)NC(CCCN)C(=O)NC(CCCN)C(=O)NC(CCCN)C(N)=O | ATCC 42203 | 12.5 µg/mL |
| COc1ccc(N2C(=O)CC(c3c(C)nn(-c4ccc(C)cc4)c3Cl)C3=C2CCCC3=O)cc1 | MTCC 3008 | 500 µg/mL |
| Cc1ccc2c(c1)nc1c(CN)c(-c3c(-c4ccc(S(C)(=O)=O)cc4)[nH]c4ccccc34)c(CN)c(N)n12 | MTCC 3008 | 1000 µg/mL |
| CCCCCCCCCCCCCCCCCC(=O)NC(CCCN)C(=O)NC(CCCN)C(=O)NC(CCCN)C(N)=O | ATCC 42203 | 1.5 µg/mL |
| CC1S[C@H](c2ccc(Cl)cc2)N(c2nc(N3CCOCC3)n[nH]2)C1=O | 168.95 | 100 µg/mL |
| Cc1nn(-c2cccc(Cl)c2)c(Cl)c1C1CC(=O)N(c2ccc(F)cc2)C2=C1C(=O)CCC2 | MTCC 3008 | 500 µg/mL |
| CCCCCCCCCCCCCCCC(=O)NC(CCCN)C(=O)NC(CCCN)C(=O)NC(CCCN)C(N)=O | ATCC 42203 | 3.1 µg/mL |
| Cc1ccc2c(c1)nc1c(CN)c(-c3c(-c4ccc(Br)cc4)[nH]c4ccccc34)c(CN)c(N)n12 | MTCC 3008 | 1000 µg/mL |
| CCCCCCCCCCCCCCCC(=O)NC(CCCN)C(=O)NC(CCCN)C(=O)NC(CCCN)C(=O)NC(CCCN)C(N)=O | ATCC 42203 | 1.5 µg/mL |
| Cc1nn(-c2cccc(Cl)c2)c(Cl)c1C1CC(=O)N(c2ccc(F)cc2)C2=C1C(=O)CC(C)(C)C2 | MTCC 3008 | 500 µg/mL |
| CCCCCCCCCCCCCCCCCC(=O)NC(CCCN)C(=O)NC(CCCN)C(=O)NC(CCCN)C(=O)NC(CCCN)C(=O)NC(CCCN)C(N)=O | ATCC 42203 | 3.1 µg/mL |
| CCC(C)CC(C)CCCCCCCCC(=O)N[C@H]1C[C@@H](O)[C@H](NCCN)NC(=O)[C@@H]2[C@@H](O)CCN2C(=O)[C@H]([C@H](O)CCN)NC(=O)[C@H]([C@H](O)[C@@H](O)c2ccc(O)cc2)NC(=O)[C@@H]2C[C@@H](O)CN2C(=O)[C@H]([C@@H](C)O)NC1=O | EMC 1 | 128 µg/mL |
| COc1ccc([C@H]2SCC(=O)N2c2nc(N3CCOCC3)n[nH]2)cc1OC | 168.95 | 100 µg/mL |
| CCCCCCCCCCCCCCCC(=O)NC(CCCN)C(N)=O | ATCC 42203 | >100 µg/mL |

Again, the opening 2 rows:

| SMILES | strain | value |
|---|---|---|
| CN1CCN(c2n[nH]c(N3C(=O)CS[C@@H]3c3ccc4c(c3)OCO4)n2)CC1 | 153.9 | 50 µg/mL |
| COc1ccc(N2C(=O)CC(c3c(C)nn(-c4ccccc4)c3Cl)C3=C2CCCC3=O)cc1 | MTCC 3008 | 1000 µg/mL |